Results: ChEMBL document CHEMBL4765236, “Insights into the Antimicrobial Activity and Cytotoxicity of Engineered α-Helical Peptide Amphiphiles” (J Med Chem, 2016)

Test system: Escherichia coli
Assay: Antibacterial activity against Escherichia coli O157:H7 CICC 21530 assessed as bacterial growth inhibition incubated for 18 to 24 hrs by microtiter broth dilution method
Format: functional
Settings: time 18-24 hrs
Method in brief: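 Log-phase bacteria grown at 37 °C in MHB, diluted to 10^5 CFU/mL, mixed 1:1 with serial peptide dilutions (peptide diluted in 0.01% acetic acid, 0.2% BSA); 37 °C for 18-24 h. MIC read by OD492 as lowest concentration giving no growth; mean of 3-5 independent experiments.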

`CC[C@H](C)[C@H](NC(=O)CN)C(=O)NCC(=O)N[C@@H](C)C(=O)N[C@H](C(=O)N[C@@H](CC(C)C)C(=O)N[C@@H](CCCCN)C(=O)N[C@H](C(=O)N[C@@H](CC(C)C)C(=O)N[C@H](C(=O)N[C@H](C(=O)NCC(=O)N[C@@H](CC(C)C)C(=O)N1CCC[C@H]1C(=O)N[C@@H](C)C(=O)N[C@@H](CC(C)C)C(=O)N[C@H](C(=O)N[C@@H](CO)C(=O)N[C@@H](Cc1c[nH]c2ccccc12)C(=O)N[C@H](C(=O)N[C@@H](CCCCN)C(=O)N[C@@H](CCCNC(=N)N)C(=O)N[C@@H](CCCCN)C(=O)N[C@@H](CCCNC(=N)N)C(=O)N[C@@H](CCC(N)=O)C(=O)N[C@@H](CCC(N)=O)C(N)=O)[C@@H](C)CC)[C@@H](C)CC)[C@@H](C)O)[C@@H](C)O)C(C)C)C(C)C` [MELITTIN] was tested. Which MIC did it give?
The MIC was 0.35 µM (≈ 0.996 µg/mL).

≈ marks a conversion by molar mass, not a printed value.
